Assay results as given in PMC3278406 (PLoS ONE, 2012).
The match of structure and compound is tentative.

Key:
[1] = molecular target: Stx1B (Stx1 B-subunits) (Bacteriophage H30, UniProt P69178); test: Isothermal titration calorimetry, glycan titrated into Stx1 B-subunits; assay type: binding, Escherichia coli O157:H7; conditions: ITC
[2] = molecular target: Stx2B (Stx2 B-subunits) (Escherichia phage 933W, UniProt P09386); test: Isothermal titration calorimetry, glycan titrated into Stx2 B-subunits; assay type: binding, Escherichia coli O157:H7; conditions: ITC

With CC(=O)N[C@H]1[C@H](O[C@H]2[C@@H](O)[C@@H](CO)O[C@H](O[C@@H]3[C@H](O)[C@@H](O)[C@H](O[C@H]4[C@H](O)[C@@H](O)C(O)O[C@@H]4CO)O[C@@H]3CO)[C@@H]2O)O[C@H](CO)[C@H](O)[C@@H]1O (stereo partly shown) the “fold lower affinity compared to Gb3” value ([1]; Stx1B) was “about 3 fold”, the Kd ([1]; read-out: Kd of Stx1B for glycan, 25°C, one-site model, n = 1 per B subunit) was 12 mM and the “binding of Stx2B to glycan” value ([2]; 25°C, glycan 50 mM) was “no binding”. The Kd ([2]; read-out: Kd of Stx2B for glycan, bound suggested from absence of binding) was > 12 mM.
